Pooled drug test results. Numbers come from NIAID ChemDB, via PubChem.

All rows: growth or infection tests; species: Candida albicans; endpoint: zone

Blank or dashed fields: not listed here. Zones are inhibition diameters on agar. Neighbouring rows are from separate reports.

compound	strain	read by	dose	result
Cc1c(N2C(=O)CSC23C(=O)N(CCCCCCBr)c2ccccc23)c(=O)n(-c2ccccc2)n1C	MTCC 227	agar diffusion	100 µg/mL	16 mm
COc1ccc(/C=c2\sc3n(c2=O)C(c2cc(OC)c(OC)c(OC)c2)C=C(c2ccc(OC)c(OC)c2)N=3)cc1	DSM 70014	agar diffusion / agar	1 mg/mL	14 mm
Cc1nn(-c2ccccc2)c2c1C1(C(=O)N(CCCCCCN3C(=O)C4(SCC(=O)N4c4c(C)n(C)n(-c5ccccc5)c4=O)c4cc(F)ccc43)c3ccccc31)c1c(C)nn(-c3ccccc3)c1O2	MTCC 227	agar diffusion	100 µg/mL	18 mm
COC(=O)N[C@H](C(=O)NN(CCC[C@@]1(Cc2ccccc2)C(=O)N(C2c3ccccc3C[C@H]2O)C[C@H]1O)Cc1ccc(-c2ccccn2)cc1)C(C)(C)C	-	agar diffusion / agar	10 mg/mL	12.8 mm
COc1cc(C2CC(c3ccc4c(c3)OCO4)=NN2C(C)=O)cc(OC)c1OC	DSM 70014	agar diffusion / agar	1 mg/mL	15 mm
Cc1nn(-c2ccccc2)c2c1C1(C(=O)N(CCCCCCN3C(=O)C4(SCC(=O)N4c4c(C)n(C)n(-c5ccccc5)c4=O)c4ccccc43)c3ccc(F)cc31)c1c(C)nn(-c3ccccc3)c1O2	MTCC 227	agar diffusion	100 µg/mL	18 mm
CC(=O)N1CCN(c2ccc(OC[C@H]3CO[C@](Cn4ccnc4)(c4ccc(Cl)cc4Cl)O3)cc2)CC1	-	agar diffusion	10 mg/disc	11.5 mm
COc1ccccc1/C=N/N=C1/NC(=O)/C(=C\c2ccccc2OC)S1	ATCC 10231	agar diffusion	200 µg	9 mm
CC(=O)c1cc(-c2nnc(-c3sc4ccccc4c3Cl)o2)ccc1O	-	-	5 µg/disc	10 mm
O=c1[nH]c(O)c(/C=C2\C=Nc3ccccc3N=C2c2ccccc2O)s1	fungal strain	agar diffusion / agar	100 µg/mL	15 mm
CC(=O)N1CCN(c2ccc(OC[C@H]3CO[C@](Cn4ccnc4)(c4ccc(Cl)cc4Cl)O3)cc2)CC1	C1	agar diffusion / agar	20 mg/mL	18 mm
CC1(C)C=C2OC(c3ccccc3O)=C(/C=C3\SC(=O)NC3=O)C=C2C(=O)C1	fungal strain	agar diffusion / agar	100 µg/mL	6 mm
COC(=O)N[C@H](C(=O)NN(CC[C@]1(Cc2ccccc2)C(=O)N(C2c3ccccc3C[C@H]2O)C[C@@H]1O)Cc1ccc(Br)cc1)C(C)(C)C	-	agar diffusion / agar	10 mg/mL	12.8 mm
O=C1N/C(=N/N=C/c2c(Cl)cccc2Cl)S/C1=C/c1ccc(Br)cc1	ATCC 10231	agar diffusion	200 µg	9 mm
O=C1NC(=O)/C(=C/c2coc3ccccc3c2=O)S1	fungal strain	agar diffusion / agar	100 µg/mL	3 mm
COc1ccc(C(=O)/C=C/c2cc(OC)c(OC)c(OC)c2)cc1OC	DSM 70014	agar diffusion / agar	1 mg/mL	14 mm
O=C1CS/C(=N/N=C/c2ccc(Cl)cc2Cl)N1	ATCC 10231	agar diffusion	200 µg	35 mm
CCOC(=O)C(=O)/C(N=Nc1ccccc1)=C(\O)c1ccc(Cl)cc1	ATCC 10231	agar diffusion / agar	0.002 µg/mL	16 mm
COc1ccc(-c2nc3ccccc3c(=O)n2-c2ccc(NS(=O)(=O)C3C(=O)ONN3c3ccc(C)cc3)cc2)cc1	MTCC 227	agar diffusion	250 µg/mL	22 mm
CC(=O)N1N=C(c2sc3ccccc3c2Cl)OC1c1ccc(F)cc1	-	-	5 µg/disc	10 mm
CCOC(=O)c1[nH]nc(-c2ccc(F)cc2)c1N=Nc1ccccc1	ATCC 10231	agar diffusion / agar	0.002 µg/mL	16 mm
COc1cccc(C2OC(c3sc4ccccc4c3Cl)=NN2C(C)=O)c1	-	-	5 µg/disc	9 mm
CCOc1ccc(S(=O)(=O)N2CCOCC2)cc1-c1nc2ncccc2c(=O)[nH]1	ATCC 10231	agar diffusion / agar	0.002 µg/mL	17 mm
COC(=O)N[C@H](C(=O)NN(CC[C@@]1(Cc2ccccc2)C(=O)N(C2c3ccccc3C[C@H]2O)C[C@@H]1O)Cc1ccc(-c2ccccn2)cc1)C(C)(C)C	-	agar diffusion / agar	10 mg/mL	12.8 mm
COc1ccc(C2=CC(c3cc(OC)c(OC)c(OC)c3)NC(SCC(=O)Nc3ccc(Cl)cc3)N2)cc1OC	DSM 70014	agar diffusion / agar	1 mg/mL	15 mm
CC(C)C[C@@H]1NC(=O)CNC(=O)[C@@H]2CCCN2C(=O)[C@H](CC(N)=O)NC(=O)[C@H](C)NC(=O)[C@H](Cc2ccc(O)cc2)NC(=O)[C@H]2CCCC2C1=O	-	-	6 µg/mL	15 mm
Clc1c(-c2nnc(-c3ccccc3)o2)sc2ccccc12	-	-	5 µg/disc	11 mm
Cc1nn(-c2ccccc2)c2c1C1(C(=O)N(CCCCCCN3C(=O)C4(SCC(=O)N4c4c(C)n(C)n(-c5ccccc5)c4=O)c4ccccc43)c3ccccc31)c1c(C)nn(-c3ccccc3)c1O2	MTCC 227	agar diffusion	100 µg/mL	17 mm
N#Cc1cc(/C=C2\SC(=O)NC2=O)c(-c2ccccc2O)[nH]c1=O	fungal strain	agar diffusion / agar	100 µg/mL	14 mm
COc1cc(C2C=C(c3ccc4c(c3)OCO4)NC(=S)N2)cc(OC)c1OC	DSM 70014	agar diffusion / agar	1 mg/mL	17 mm
Clc1ccccc1-c1nnc(-c2sc3ccccc3c2Cl)o1	-	-	5 µg/disc	10 mm
COc1ccc(C2=CC(c3cc(OC)c(OC)c(OC)c3)N=C(SCC(C)=O)N2)cc1OC	DSM 70014	agar diffusion / agar	1 mg/mL	14 mm
COC(=O)N[C@H](C(=O)NN(CCC[C@@]1(Cc2ccccc2)C(=O)N(C2c3ccccc3C[C@H]2O)C[C@H]1O)Cc1ccc(-c2cccnc2)cc1)C(C)(C)C	-	agar diffusion / agar	10 mg/mL	12.8 mm
Fc1ccc(-c2nnc(-c3sc4ccccc4c3Cl)o2)cc1	-	-	5 µg/disc	12 mm
CCOC(=O)c1[nH]nc(-c2ccc(Br)cc2)c1N	ATCC 10231	agar diffusion / agar	0.002 µg/mL	16 mm
O=C1N/C(=N/N=C/c2csc(-c3ccccc3)n2)S/C1=C/c1ccc(O)cc1	ATCC 10231	agar diffusion	200 µg	0 mm
Cc1c(N2C(=O)CSC23C(=O)N(CCCCCCBr)c2ccc(F)cc23)c(=O)n(-c2ccccc2)n1C	MTCC 227	agar diffusion	100 µg/mL	17 mm
Cc1ccc(N2NOC(=O)C2S(=O)(=O)Nc2ccc(-n3c(-c4ccccc4Cl)nc4ccccc4c3=O)cc2)cc1	MTCC 227	agar diffusion	250 µg/mL	19 mm
COc1cc(C2CC(c3ccc4c(c3)OCO4)=NN2C=O)cc(OC)c1OC	DSM 70014	agar diffusion / agar	1 mg/mL	14 mm
Cc1ccc2c(c1)C1(C(=O)N2CCCCCCN2C(=O)C3(SCC(=O)N3c3c(C)n(C)n(-c4ccccc4)c3=O)c3cc(C)ccc32)c2c(C)nn(-c3ccccc3)c2Oc2c1c(C)nn2-c1ccccc1	MTCC 227	agar diffusion	100 µg/mL	18 mm
COC(=O)N[C@H](C(=O)NN(CCC[C@@]1(Cc2ccccc2)C(=O)N(C2c3ccccc3C[C@H]2O)C[C@H]1O)Cc1ccc(Br)cc1)C(C)(C)C	-	agar diffusion / agar	10 mg/mL	12.8 mm
CCOc1ccc2nc(NS(=O)(=O)C3C(=O)ONN3c3ccc(C)cc3)sc2c1	MTCC 227	agar diffusion	250 µg/mL	19 mm
COC(=O)N[C@H](C(=O)NN(CC[C@@]1(Cc2ccccc2)C(=O)N(C2c3ccccc3C[C@H]2O)C[C@H]1O)Cc1ccc(Br)cc1)C(C)(C)C	-	agar diffusion / agar	10 mg/mL	12.8 mm
COc1cc(/C=C/C(=O)c2ccc3c(c2)OCO3)cc(OC)c1OC	DSM 70014	agar diffusion / agar	1 mg/mL	16 mm
COC(=O)N[C@H](C(=O)NN(CC[C@@]1(Cc2ccccc2)C(=O)N(C2c3ccccc3C[C@H]2O[Si](C)(C)C(C)(C)C)C[C@@H]1O[Si](C)(C)C(C)(C)C)Cc1ccc(Br)cc1)C(C)(C)C	-	agar diffusion / agar	10 mg/mL	12.8 mm
C[C@H]1[C@H](O)[C@@H](C)/C=C/C=C/C=C/C=C/C=C/C=C/C=C/[C@H](O[C@@H]2O[C@H](C)[C@@H](O)[C@H](N)[C@@H]2O)C[C@@H]2O[C@](O)(C[C@@H](O)C[C@@H](O)CC[C@H](O)[C@@H](O)C[C@@H](O)CC(=O)O[C@H]1C)C[C@H](O)[C@H]2C(=O)O	MTCC	agar diffusion	100 µg/mL	20 mm
Cc1ccc(-c2csc(NS(=O)(=O)C3C(=O)ONN3c3ccc(C)cc3)n2)cc1	MTCC 227	agar diffusion	250 µg/mL	17 mm

A second listing of 3 rows from above:

| compound | strain | read by | dose | result |
|---|---|---|---|---|
| CC1(C)C=C2OC(c3ccccc3O)=C(/C=C3\SC(=O)NC3=O)C=C2C(=O)C1 | fungal strain | agar diffusion / agar | 100 µg/mL | 6 mm |
| Cc1c(N2C(=O)CSC23C(=O)N(CCCCCCBr)c2ccccc23)c(=O)n(-c2ccccc2)n1C | MTCC 227 | agar diffusion | 100 µg/mL | 16 mm |
| Cc1ccc(-c2csc(NS(=O)(=O)C3C(=O)ONN3c3ccc(C)cc3)n2)cc1 | MTCC 227 | agar diffusion | 250 µg/mL | 17 mm |